Measured values from several laboratories, pooled; numbers as filed in NIAID ChemDB.

Common to all: tests in culture; organism: Herpes simplex virus 2; method: plaque count; read-out: EC50

Two numbers with a dash give a range or band. ECn: concentration that inhibits the pathogen or its effect by n%. Neighbouring rows are from separate reports. An empty or dashed field is not shown.

smiles	cells	strain	result
Cc1cn([C@@H]2O[C@H](CO)[C@@H](O)[C@@H]2O)c(=O)[nH]c1=O	HELF	42-78	1.4 µM
Nc1nc2c(ncn2C/C=C\CO)c(=O)[nH]1	VERO	91075 (acyclovir-resistant)	≥250 µM
CCn1cc(C(N)=O)c(=O)c2cc(F)c(-c3ccncc3)cc21	VERO	Curtis	>100 µg/mL
O=c1[nH]c(=O)n([C@@H]2O[C@H](CO)[C@@H](O)[C@@H]2F)cc1I	VERO	G-FIAU-C1	15 µM
Nc1nc2c(ncn2C[C@H]2CC[C@@H](P(=O)(O)O)O2)c(=O)[nH]1	VERO	186	>100 µg/mL
Nc1nc(=S)n([C@H]2C[C@H](O)[C@@H](CO)O2)cc1Cl	MRC-5	G	72.3 µM
O=c1[nH]c(=O)n([C@@H]2O[C@H](CO)[C@@H](O)[C@@H]2O)cc1/C=C/Br	HEL	UW-268	230 µM
CCOP(=O)(OCC)C1=NOC(Cn2cc(C)c(=O)[nH]c2=O)C1	VERO		>400 µM
O=c1[nH]c(=O)n([C@H]2C[C@H](O)[C@@H](CO[P@]3(=O)OCc4cccc(-c5ccccc5)c4O3)O2)cc1/C=C/Br	VERO	G (TK+)	>128 µg/mL
Nc1nc2c(ncn2C[C@H]2CC[C@H](P(=O)(O)O)O2)c(=O)[nH]1	VERO	186	15 µg/mL
O=C(OC1COC(=O)c2cc(O)c(O)c(O)c2-c2c(cc(O)c(O)c2O)C(=O)OC1C1OC(=O)c2cc(O)c(O)c(O)c2-c2c(O)c(O)c(O)c3c2C(=O)OC1C3O)c1cc(O)c(O)c(O)c1	VERO		1.5 µM
CC(=O)OCC(CO)OCn1cnc2c(=O)[nH]c(N)nc21	HFF		2.7 µg/mL
Nc1ccn([C@H]2O[C@@H](CO)[C@H](O)[C@H]2F)c(=O)n1	VERO	G-FIAC-C1	3.3 µM
Nc1nc2c(ncn2CCC(CO)CO)c(=O)[nH]1	MRC-5	13 isolates	1.5 µg/mL
Nc1nc(=O)n([C@@H]2O[C@H](CO)[C@@H](O)[C@@H]2F)cc1I	VERO	G-FAC-C1	15 µM
CCCCCCCCCCCCCCCCCCOCCOP(=O)(O)CO[C@H](CO)Cn1ccc(N)nc1=O	MRC-5		0.03 µM
CC(C)[C@H](N)C(=O)OCC(COC(=O)[C@@H](N)C(C)C)OCn1cnc2c(=O)[nH]c(N)nc21	HFF		0.44 µM
Nc1nc2c(ncn2COCCO)c(=O)[nH]1	VERO	G	0.4–1 µg/mL
Nc1nc2c(ncn2CC(CO)OCP(=O)(O)O)c(=O)[nH]1	WI-38	186	0.8 µM
CCCCCC(=O)OCC(CO)CCn1cnc2c(=O)[nH]c(N)nc21	VERO	MS	15 µM
Nc1nc2c(ncn2COCCO)c(=O)[nH]1	HFF	Heeter	0.9 µg/mL
CC(C)=CCCC(CO)C1CCC2C3CC=C4C[C@H](O)[C@@H](O)CC4(C)C3CCC12C	VERO	G	17.5 µg/mL
CC(=O)OC[C@H]1[C@H](COC(C)=O)[C@@H](CO)O[C@H]1n1cnc2c(N)ncnc21	MEF	MS	277 µM
CCOC(=O)CC1OP(=O)(OC[C@H]2O[C@@H](n3cc(/C=C/Br)c(=O)[nH]c3=O)C[C@@H]2O)Oc2cccc(Cl)c21	VERO	G (TK+)	>128 µg/mL
CCCn1c(C)c(C(N)=O)c(=O)c2ccc(-c3ccncc3)cc21	VERO		>50 µg/mL
CC(=O)OCC(CO)CCn1cnc2c(=O)[nH]c(N)nc21	VERO	MS	31 µM
Cn1cc(C(=O)NCc2ccc(Cl)cc2)c(=O)c2cc(CN3CCOCC3)ccc21	HFF	Heeter (wild type)	3.5 µM
CC(C)Nc1nc(N)nc2c1ncn2/C=C1/C[C@@H]1CO	VERO		50 µM
O=c1[nH]c(=O)n([C@H]2O[C@@H](CO)[C@@H](O)[C@@H]2O)cc1C(F)(F)F	HELF	42-78	72 µM
Nc1nc2c(ncn2COCCO)c(=O)[nH]1	VERO	HG-52	0.5 µM
CC(=O)NC(CCc1ccc(Cl)c(Cl)c1)c1cccc(O)c(=O)c1	HFF	Clinical isolate	1.67 µM
CCCc1cn([C@H]2C[C@H](O)[C@@H](CO)O2)c(=O)[nH]c1=O	HELA BU	333	<10 µM
CCCCCCCCCCCCCC(=O)NC(C)(C)C(=O)N1C[C@@H](O)CC1C(=O)N[C@@H](CC(C)C)C(=O)N[C@H](C(=O)N[C@@H](CCC(N)=O)C(=O)N[C@H](CO)CC(C)C)C(C)C	VERO		0.28 µM
Nc1ncnc2c1ncn2[C@@H]1C[C@H](CO)[C@@H](O)[C@@H]1O	VERO	G-FIAC-C1	85 µM
Nc1nc2c(ncn2C[C@]2(CO)C[C@H]2CO)c(=O)[nH]1			0.1–1 µM
COc1cc2c(cc1Oc1ccccc1)OC1C3=C(OCC21)C(=O)c1ccccc1C3=O	VERO	G	0.18 µg/mL
C/C(=N\NC(=S)N(C)C1CCCCCC1)c1ccccn1	BHK-21/4	X-79	0.08 µg/mL
O=C(O)CP(=O)(O)O	HEL	UW/TK-	76 µM
Nc1nc(=S)n([C@H]2C[C@H](O)[C@@H](CO)O2)cc1Br	MRC-5	G	8.41 µM
Cc1cc(C)c(OC(=O)c2ccc(Cl)cc2)c(=O)c(C)c1	HFF	Clinical isolate	0.84 µM
CS/C=C/C(=O)NCCCCNC(=O)Cc1ccccc1			>20 µg/mL
CCCCCCCCCCCCCCCCOCCCOP(=O)(O)CO[C@H](CO)Cn1ccc(N)nc1=O	MRC-5		0.13 µM
Cc1cn([C@@H]2O[C@H](CO)[C@@H](O)[C@@H]2F)c(=O)[nH]c1=O	VERO	G-FAU-C2	12 µM
NC(=S)c1cn(COCCO)c2ncnc(N)c12	HFF	MS	30 µM
O=c1[nH]c(=O)n([C@@H]2O[C@H](CO)[C@@H](O)[C@@H]2O)cc1F	HELF	42-78	156 µM
CCCCCCCCCCCCCCCCOCCCOP(=O)(O)OCC(CO)CCn1cnc2c(=O)[nH]c(N)nc21	MRC-5		>153 µM
Nc1nc2c(ncn2[C@@H]2C[C@H](CO)[C@H]2CO)c(=O)[nH]1	WI-38	Curtis	0.2–0.4 µM
Nc1nc(=O)n([C@@H]2O[C@H](CO)[C@@H](O)[C@@H]2F)cc1I	HELF	42-78	0.37 µM
Nc1nc2c(ncn2CCC(CO)CO)c(=O)[nH]1	MRC-5		12.8 µM
CC(=O)OCC(COC(C)=O)OCn1cnc2c(=O)[nH]c(N)nc21	HFF		15.8 µg/mL
O=c1[nH]c(=O)n([C@@H]2O[C@H](CO)[C@@H](O)[C@@H]2O)cc1I	HELF	42-78	100 µM
C/C(=N\NC(N)=S)c1ccccn1	BHK-21/4	X-79	0.9 µg/mL
C=C(C)[C@@H]1CC[C@]2(CO)CC[C@]3(C)[C@H](CC[C@@H]4[C@@]5(C)CC[C@H](O)C(C)(C)[C@@H]5CC[C@]43C)[C@@H]12	VERO	G	4.15 µg/mL
O=c1[nH]c(=O)n([C@H]2C[C@H](O)[C@@H](CO)O2)cc1/C=C/C(F)(F)F	HELA BU	333	<10 µM
CC(C)=CCC[C@@H](COS(=O)(=O)O)C1CCC2C3CC[C@H]4C[C@H](OS(=O)(=O)O)[C@@H](O)CC4(C)C3CCC21C	VERO	TYPE G	24.3 µg/mL
Nc1nc2c(ncn2[C@@H]2CO[C@H](CO)[C@@H](O)C2)c(=O)[nH]1			0.1–1 µM
O=C(O)C(O)c1ccccc1	CaSki Cells	Strain 333	0.0058 µg/mL
NC(=O)c1cn(-c2ccccc2F)c2cc(-c3ccncc3)ccc2c1=O	VERO	Curtis	>1.6 µg/mL
CO[C@H]1C[C@H](n2cc(/C=C/Br)c(=O)[nH]c2=O)O[C@@H]1COP1(=O)OCc2cccc(C)c2O1	VERO	G (TK+)	>128 µg/mL
CCCn1cc2c(=O)ncnc-2c2ccc(-c3ccncc3)cc21	VERO		>100 µg/mL
Cc1cn([C@@]23C[C@H](O)[C@@H](CO)[C@@H]2C3)c(=O)[nH]c1=O	HFF		>20 µg/mL
CC(C)[C@H](N)C(=O)N[C@H](C(=O)OCC(COC(=O)[C@@H](NC(=O)[C@@H](N)C(C)C)C(C)C)OCn1cnc2c(=O)[nH]c(N)nc21)C(C)C	HFF		0.34 µM
COC(=O)[C@H]1[C@@H]2C[C@@H](O[C@@H]3O[C@H](C)[C@@H](O)[C@H](N)[C@@H]3O)/C=C/C=C/C=C/C=C/C=C/C=C/C=C/[C@H](C)[C@@H](O)[C@H](C)[C@H](C)OC(=O)C[C@H](O)C[C@H](O)[C@@H](O)CC[C@H](O)C[C@H](O)C[C@](O)(C[C@@H]1O)O2	HFF		1 µg/mL
CCOP(=O)(OCC)C1=NOC(n2ccc(NC(C)=O)nc2=O)C1	VERO		>200 µM
Nc1nc2c(ncn2/C=C2/CC2(CO)CO)c(=O)[nH]1	HFF	MS	>380 µM
Nc1nc2c(ncn2CCC(CO)CO)c(=O)[nH]1	MRC-5	Clinical isolate	1.2 µg/mL
Cc1cn([C@@H]2O[C@H](CO)[C@H]2CO)c(=O)[nH]c1=O	HFF	8711 (TK-)	>100 µg/mL
CC(=O)O[C@H]1CC2=CCC3C(CCC4(C)C(C(CCC=C(C)C)COS(=O)(=O)O)CCC34)C2(C)C[C@@H]1OS(=O)(=O)O	VERO	G	22.4 µg/mL
Nc1nc(=S)n([C@@H]2O[C@H](CO)[C@@H](O)[C@@H]2O)cc1Cl	MRC-5	G	>341 µM
CCCC(=O)OCC(CO)OCn1cnc2c(=O)[nH]c(N)nc21	HFF		1.7 µg/mL
CC(C)CCCC(COS(=O)(=O)O)C1CCC2C3CC=C4C[C@H](O)[C@@H](OS(=O)(=O)O)CC4(C)C3CCC12C	VERO	G	18.4 µg/mL
C/C(=N\NC(=S)N(C)C1CCCCC1)c1ccccn1	BHK-21/4	X-79	0.05 µg/mL
Nc1nc2c(ncn2COC(CO)CO)c(=O)[nH]1	VERO		1.67 µM
Cc1nc(N(C)C(=O)Cc2ccc(-c3ccccn3)cc2)sc1S(N)(=O)=O	HEF	2 (G)	0.023 µM
Nc1nc2c(ncn2CCCCO)c(=O)[nH]1	VERO	72	14 µM
Nc1nc2c(ncn2[C@@H]2C[C@H](CO)[C@H]2CO)c(=O)[nH]1			0.01–0.1 µM
C=Cc1cn([C@@H]2O[C@H](CO)[C@@H](O)[C@@H]2O)c(=O)[nH]c1=O	HELF	42-78	9 µM
O=C(NCc1ccc(Cl)cc1)c1cn2c3c(cc(CN4CCOCC4)cc3c1=O)OC(c1cccnc1)C2	HFF	11572 (ACV-resistant)	4.7 µM
CC(C)=CCc1ccc(O)c(=O)cc1C(C)C	VERO	Clinical isolate	0.22 µM

Repeating the first 11 entries:

smiles | cells | strain | result
Cc1cn([C@@H]2O[C@H](CO)[C@@H](O)[C@@H]2O)c(=O)[nH]c1=O | HELF | 42-78 | 1.4 µM
Nc1nc2c(ncn2C/C=C\CO)c(=O)[nH]1 | VERO | 91075 (acyclovir-resistant) | ≥250 µM
CCn1cc(C(N)=O)c(=O)c2cc(F)c(-c3ccncc3)cc21 | VERO | Curtis | >100 µg/mL
O=c1[nH]c(=O)n([C@@H]2O[C@H](CO)[C@@H](O)[C@@H]2F)cc1I | VERO | G-FIAU-C1 | 15 µM
Nc1nc2c(ncn2C[C@H]2CC[C@@H](P(=O)(O)O)O2)c(=O)[nH]1 | VERO | 186 | >100 µg/mL
Nc1nc(=S)n([C@H]2C[C@H](O)[C@@H](CO)O2)cc1Cl | MRC-5 | G | 72.3 µM
O=c1[nH]c(=O)n([C@@H]2O[C@H](CO)[C@@H](O)[C@@H]2O)cc1/C=C/Br | HEL | UW-268 | 230 µM
CCOP(=O)(OCC)C1=NOC(Cn2cc(C)c(=O)[nH]c2=O)C1 | VERO |  | >400 µM
O=c1[nH]c(=O)n([C@H]2C[C@H](O)[C@@H](CO[P@]3(=O)OCc4cccc(-c5ccccc5)c4O3)O2)cc1/C=C/Br | VERO | G (TK+) | >128 µg/mL
Nc1nc2c(ncn2C[C@H]2CC[C@H](P(=O)(O)O)O2)c(=O)[nH]1 | VERO | 186 | 15 µg/mL
O=C(OC1COC(=O)c2cc(O)c(O)c(O)c2-c2c(cc(O)c(O)c2O)C(=O)OC1C1OC(=O)c2cc(O)c(O)c(O)c2-c2c(O)c(O)c(O)c3c2C(=O)OC1C3O)c1cc(O)c(O)c(O)c1 | VERO |  | 1.5 µM